# Kdimer by position in the HIV-1 leader RNA

From the data files of Ye et al. 2022, doi:10.1038/s41594-022-00746-2.

Sequence of the HIV-1 NL4-3 5' RNA, positions 1 to 437, as numbered in the source:
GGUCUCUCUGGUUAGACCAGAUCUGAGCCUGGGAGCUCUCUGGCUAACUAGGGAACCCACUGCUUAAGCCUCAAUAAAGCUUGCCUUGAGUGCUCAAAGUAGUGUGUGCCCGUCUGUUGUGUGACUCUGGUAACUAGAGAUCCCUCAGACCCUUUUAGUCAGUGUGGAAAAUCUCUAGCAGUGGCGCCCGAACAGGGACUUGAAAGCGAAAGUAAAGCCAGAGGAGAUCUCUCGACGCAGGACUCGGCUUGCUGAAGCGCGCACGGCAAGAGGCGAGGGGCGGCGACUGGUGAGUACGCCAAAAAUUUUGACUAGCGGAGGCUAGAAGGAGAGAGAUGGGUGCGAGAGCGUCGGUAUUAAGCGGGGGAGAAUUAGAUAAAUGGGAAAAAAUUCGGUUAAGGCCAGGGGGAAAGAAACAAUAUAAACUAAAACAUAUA

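Randomly mutated transcripts starting with one, two or three G (1G, 2G, 3G), capped or uncapped, were folded for 30 min at 37 °C. High salt was 300 mM KCl and 5 mM MgCl2, low salt 40 mM KCl and 0.1 mM MgCl2; monomer and dimer were parted on a native gel. Kdimer compares mutation frequencies in monomer and dimer, corrected for sequencing errors.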

Values are log2 Kdimer, the median over the changes at each position: higher means that changes there hinder dimer formation, below 0 that they favour it. Sample: 2G capped low-salt. One numbering serves 1G, 2G and 3G. A position is written with its base where known. The source gives no letters past position 437.

G25 (domain TAR) read -1.32.
G31 (domain TAR) read -0.34.
U49 (domain TAR) read -0.03.
A59 (domain PolyA) read 0.27.
U65 (domain PolyA) read 0.33.
A67 (domain PolyA) read 0.11.
A77 (domain PolyA) read 0.07.
G108 (domain U5) read -0.56.
G116 read -0.28.
U126 (domain PAS) read 0.05.
U128 (domain PAS) read 0.50.
G129 (domain PAS) read 0.87.
A136 (domain PBS) read -0.16.
U153 (domain PBS) read 0.17.
U154 (domain PBS) read -0.15.
C160 (domain PBS) read -0.34.
G167 (domain PBS) read 0.47.
U182 (domain PBS) read 0.14.
C188 (domain PBS) read 0.05.
U200 (domain PBS) read 0.08.
A204 (domain PBS) read -0.02.
A214 (domain PBS) read 0.00.
G226 read -0.65.
G237 read 0.70.
C262 (domain SL1) read 3.06.
C267 (domain SL1) read 2.73.
A271 (domain SL1) read -0.13.
C287 (domain SL2) read -0.68.
G292 (domain SL2) read -0.23.
A305 read -0.05.
U313 (domain SL3) read 1.26.
C316 (domain SL3) read 0.57.
G320 (domain SL3) read -0.41.
G328 read -0.20.
G329 read 0.04.
A334 (domain AUG) read 0.39.
A347 read 0.23.
G348 read -0.33.
U351 read 0.09.
U355 read 0.00.
A370 read 0.08.
A376 read -0.09.
G382 read -0.12.
G405 read -0.25.
G413 read -0.09.
A424 read 0.00.
position 450 read 0.00.
position 471 read 0.09.
position 497 read -0.04.

The first 2 entries again:

| position | domain | 2G capped low-salt |
|---|---|---|
| G25 | TAR | -1.32 |
| G31 | TAR | -0.34 |